Pooled drug test results. Numbers come from NIAID ChemDB, via PubChem.

Common to all: growth or infection tests; agent: Candida albicans; read-out: MIC

Neighbouring rows are from separate reports. An empty or dashed field is not shown.

structure	strain or isolate	read by	result
CN(C)CCSC(=S)NCc1ccc(Cl)cc1			20 µg/mL
COc1ccc(N2C(=O)CC(c3c(C)nn(-c4ccccc4)c3Cl)C3=C2CC(C)(C)CC3=O)cc1	MTCC 227	broth dilution	1000 µg/mL
Cc1ccc(-n2c(SCC(=O)Nc3c(C)n(C)n(-c4ccccc4)c3=O)nnc2-c2ccco2)cc1	ATCC 10231		16 µg/mL
O=C1OC(c2ccc(Oc3ccccc3)cc2)=C/C1=C\c1ccc(Cl)cc1			>100 µg/mL
COC(=O)c1cc(O)c(O)c2oc3cc(OC)cc(O)c3c(=O)c12	ATCC 18804	broth dilution	>62.5 µg/mL
N=C(N)SCCN(CCSC(=N)N)CCSC(=N)N	ATCC 18804		0.49 µg/mL
CN(C)CCSC(=S)NCc1ccc(F)cc1			10 µg/mL
Cc1c(NC(=O)CSc2nnc(-c3ccco3)n2C)c(=O)n(-c2ccccc2)n1C	ATCC 10231		16 µg/mL
O=C1C[C@@H](c2ccccc2)Oc2cc(O)cc(O)c21			3 µg/mL
O=C1NC(c2ccc(Oc3ccccc3)cc2)=C/C1=C\c1cccc([N+](=O)[O-])c1			10 µg/mL
CCO/N=C(\c1ccccc1)c1cc2ccccc2o1			4 µg/mL
CC1=CC[C@H](Br)[C@@]2(C)CC[C@@H](Br)C(C)(O)CC[C@@H](C(C)(C)Br)OC(=O)c3ccc(O)c(c3)C[C@H]12			>75 µM
COc1ccc(N2C(=O)CC(c3c(C)nn(-c4cccc(Cl)c4)c3Cl)C3=C2CC(C)(C)CC3=O)cc1	MTCC 227	broth dilution	500 µg/mL
CN=C(N)SCCN(CCSC(N)=NC)CCSC(N)=NC	ATCC 18804		500 µg/mL
NCCSC(=S)NCc1ccccc1			20 µg/mL
O/N=C(\c1ccc(Cl)cc1)c1cc2ccccc2o1			4 µg/mL
O=C1OC(c2ccc(Oc3ccccc3)cc2)=C/C1=C\c1c(Cl)cccc1Cl			>100 µg/mL
C=C(C)[C@@H]1CCC(C)(O)[C@H](Br)CC[C@@]2(C)C(=C(C)CC[C@@H]2Br)Cc2cc(ccc2O)C(=O)O1			>90 µM
Cc1nn(-c2cccc(Cl)c2)c(Cl)c1C1CC(=O)N(c2ccc(F)cc2)C2=C1C(=O)CC(C)(C)C2	MTCC 227	broth dilution	1000 µg/mL
COc1ccc(CNC(=S)SCCN(C)C)cc1			100 µg/mL
Cc1c(NC(=O)CSc2nnc(-c3ccco3)n2C2CCCCC2)c(=O)n(-c2ccccc2)n1C	ATCC 10231		16 µg/mL
COc1ccc(N2C(=O)CC(c3c(C)nn(-c4ccc(C)cc4)c3Cl)C3=C2CCCC3=O)cc1	MTCC 227	broth dilution	500 µg/mL
Cc1c(O)cccc1C(=O)N[C@@H](CSc1ccccc1)[C@H](O)CN1C[C@H]2CCCC[C@H]2C[C@H]1C(=O)NC(C)(C)C	I168RA		>64 µg/mL
CC(=O)c1cccc(-c2nc3ccccn3c2O)c1	A		>125 µg/mL
O=C1OC(c2ccc(Oc3ccccc3)cc2)=C/C1=C\c1ccc2c(c1)OCO2			>100 µg/mL
CC(C)(CS(=O)(=O)[O-])N(Cl)Cl	10231		32 µg/mL
Oc1c(-c2ccc(Cl)cc2)nc2ncccn12	A		>125 µg/mL
O=C1NC(c2ccc(Oc3ccccc3)cc2)=C/C1=C\c1cccc(O)c1			>100 µg/mL
CN(C)CCSC(=S)NCc1ccc(C(C)(C)C)cc1			1 µg/mL
C=C1CC[C@H](Br)[C@@]2(C)CC[C@@H](Br)[C@@]3(C)CC[C@H](OC(=O)c4ccc(O)c(c4)C[C@H]12)C(C)(C)O3			45 µM
Cc1cc(COc2ccc(Oc3ccc(Cl)cc3)cc2)n(O)c(=O)c1	TIMM0144		4 µg/mL
Cc1nn(-c2cccc(Cl)c2)c(Cl)c1C1CC(=O)N(c2ccc(F)cc2)C2=C1C(=O)CCC2	MTCC 227	broth dilution	1000 µg/mL
Oc1c(-c2ccc(F)cc2)nc2ncccn12	A		>125 µg/mL
O/N=C(\c1ccccc1)c1cc2ccccc2o1			0.5 µg/mL
O=C1/C(=C/c2ccc(Cl)cc2)C=C(c2ccc(Oc3ccccc3)cc2)N1Cc1ccccc1			>100 µg/mL
COc1ccc(N2C(=O)CC(c3c(C)nn(-c4ccc(C)cc4)c3Cl)C3=C2CC(C)(C)CC3=O)cc1	MTCC 227	broth dilution	1000 µg/mL
O=C1/C(=C/c2cccc([N+](=O)[O-])c2)C=C(c2ccc(Oc3ccccc3)cc2)N1Cc1ccccc1			>100 µg/mL
Oc1c(-c2ccccc2)nc2ncccn12	A		>125 µg/mL
Cc1ccc(/C(=N\OCc2ccc(Cl)cc2)c2cc3ccccc3o2)cc1			16 µg/mL
C[C@H](CCCC(C)(C)N)C1CC[C@@]2(C)C3CC=C4C(C)(C)[C@@H](O)CC[C@]4(C)C3CC[C@]12C	IP 1180.79		4 µM
C=CCCN1C[C@H](OCC23C[C@@H]4[C@H](C)CC[C@H]4C4(C=O)CC2C=C(C(C)C)C34C(=O)O)O[C@H](C)[C@@H](OC)C1	SANK51486		0.5 µg/mL
Clc1ccc(/C(=N\OCc2ccccc2)c2cc3ccccc3o2)cc1			32 µg/mL
CCCCn1c(SCC(=O)Nc2c(C)n(C)n(-c3ccccc3)c2=O)nnc1-c1ccco1	ATCC 10231		16 µg/mL
CO/N=C(\c1ccc(C)cc1)c1cc2ccccc2o1			1 µg/mL
Cc1c(NC(=O)C(C)Sc2nnc(-c3ccco3)n2C2CCCCC2)c(=O)n(-c2ccccc2)n1C	ATCC 10231		16 µg/mL
CCN(CC)CCSC(=S)NCc1ccccc1			10 µg/mL
Clc1ccc(CO/N=C(\c2ccccc2)c2cc3ccccc3o2)cc1			16 µg/mL
Cc1c(NC(=O)CSc2nnc(-c3ccco3)n2-c2ccc(Br)cc2)c(=O)n(-c2ccccc2)n1C	ATCC 10231		16 µg/mL
Cc1ccc(CNC(=S)SCCN(C)C)cc1			10 µg/mL

The last 6 rows once more:

structure | strain or isolate | read by | result
CO/N=C(\c1ccc(C)cc1)c1cc2ccccc2o1 |  |  | 1 µg/mL
Cc1c(NC(=O)C(C)Sc2nnc(-c3ccco3)n2C2CCCCC2)c(=O)n(-c2ccccc2)n1C | ATCC 10231 |  | 16 µg/mL
CCN(CC)CCSC(=S)NCc1ccccc1 |  |  | 10 µg/mL
Clc1ccc(CO/N=C(\c2ccccc2)c2cc3ccccc3o2)cc1 |  |  | 16 µg/mL
Cc1c(NC(=O)CSc2nnc(-c3ccco3)n2-c2ccc(Br)cc2)c(=O)n(-c2ccccc2)n1C | ATCC 10231 |  | 16 µg/mL
Cc1ccc(CNC(=S)SCCN(C)C)cc1 |  |  | 10 µg/mL